## Share of PSTVd loop 15 variants by leaf site

PSTVd intermediate strain, loop 15: wild type GGAAACCGCUACUAC, pool pattern GGAAACCGNNNNNNC; upper and lower strand joined, each 5' to 3', the first 7 letters being the upper strand, closing pairs included.

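A pool of all variants was put on leaves of three Nicotiana benthamiana plants. Samples came from the inoculated region at 5 days, the leaf margin at 10 and upper systemic leaves at 12.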

Numbers give reads per thousand; 0 = not seen among the reads, higher = more abundant. Each value is the mean of three plants. "Pool" is the share in the plasmid pool used as inoculum, on the same scale. The inoculated region was read from the minus strand, the other sites from the plus strand. IR is the inoculated region, LM the leaf margin, Sys the systemic leaves. With 43,870-66,106 reads a sample, very low values are single reads.

* GGAAACCGAUUCGAC (pool 0.208): IR 0.187; LM 0.0215; Sys 0
* GGAAACCGAGUCUAC (pool 0.0960): IR 0.0760; LM 0.0334; Sys 0
* GGAAACCGGGACGGC (pool 0.256): IR 0.147; LM 0.00668; Sys 0
* GGAAACCGCAAUGUC (pool 0.208): IR 0.107; LM 0.00539; Sys 0
* GGAAACCGGUGGCGC (pool 0.208): IR 0.0939; LM 0; Sys 0.00760
* GGAAACCGUUCAAGC (pool 0.224): IR 0.0840; LM 0.0241; Sys 0.0130
* GGAAACCGAAACGCC (pool 0.192): IR 0.0796; LM 0; Sys 0.0104
* GGAAACCGCGUAGUC (pool 0.208): IR 0.247; LM 0.0134; Sys 0
* GGAAACCGCGCUCCC (pool 0.128): IR 0.101; LM 0; Sys 0
* GGAAACCGAGCGGCC (pool 0.272): IR 0.100; LM 0.00539; Sys 0
* GGAAACCGCGCCCAC (pool 0.176): IR 0.0713; LM 0.00668; Sys 0
* GGAAACCGCCUGUAC (pool 0.256): IR 0.359; LM 0.152; Sys 0.0944
* GGAAACCGAGAGCCC (pool 0.144): IR 0.0839; LM 0.00668; Sys 0
* GGAAACCGGCUCCAC (pool 0.256): IR 0.0606; LM 0.0148; Sys 0.00537
* GGAAACCGACCUCCC (pool 0.352): IR 0.0890; LM 0.00539; Sys 0.00537
* GGAAACCGGCCAACC (pool 0.160): IR 0.0441; LM 0.0195; Sys 0
* GGAAACCGCAUAAAC (pool 0.176): IR 0.0741; LM 0; Sys 0
* GGAAACCGGAUGUUC (pool 0.368): IR 0.0533; LM 0.0141; Sys 0
* GGAAACCGCUCUUUC (pool 0.112): IR 0.418; LM 0.0798; Sys 0.00537
* GGAAACCGGCAGCAC (pool 0.272): IR 0.103; LM 0; Sys 0
* GGAAACCGUGCUCUC (pool 0.176): IR 0.127; LM 0.0128; Sys 0.00537
* GGAAACCGCAUCAGC (pool 0.352): IR 0.217; LM 0.0175; Sys 0.0107
* GGAAACCGAGGAGCC (pool 0.144): IR 0.0945; LM 0; Sys 0.00537
* GGAAACCGUGACAAC (pool 0.208): IR 0.313; LM 0.0665; Sys 0.0670
* GGAAACCGGGGCCUC (pool 0.176): IR 0.0680; LM 0.0262; Sys 0.00537
* GGAAACCGUCGCAAC (pool 0.176): IR 0.0514; LM 0.0195; Sys 0
* GGAAACCGGGACUGC (pool 0.192): IR 0.0785; LM 0.00742; Sys 0
* GGAAACCGAGGUUGC (pool 0.240): IR 0.0859; LM 0.00742; Sys 0
* GGAAACCGCUACUAU (pool 0.336): IR 0.494; LM 0.391; Sys 0.258
* GGAAACCGGAUAGUC (pool 0.272): IR 0.185; LM 0; Sys 0
* GGAAACCGGGCCUCC (pool 0.272): IR 0.127; LM 0.0195; Sys 0
* GGAAACCGUAGGGAC (pool 0.320): IR 0.113; LM 0.00668; Sys 0.00760
* GGAAACCGGACCACC (pool 0.176): IR 0.0956; LM 0.0187; Sys 0
* GGAAACCGCUGACAC (pool 0.240): IR 0.103; LM 0.0148; Sys 0
* GGAAACCGCUUCAUC (pool 0.208): IR 0.0645; LM 0.0175; Sys 0

The last 2 entries again:

For GGAAACCGCUGACAC (pool 0.240) the result was IR 0.103; LM 0.0148; Sys 0.
For GGAAACCGCUUCAUC (pool 0.208) the result was IR 0.0645; LM 0.0175; Sys 0.

The authors trace changes outside the varied positions to PCR and sequencing errors or to mutation in the plant; presence does not show that a variant is infectious alone. Wild type was 33.9 per thousand in the pool and the most common sequence in every sample (inoculated region 202, 200, 159; leaf margin 724, 746, 710; systemic leaves 856, 883, 880).

Values reported by Wu et al. 2024 (doi:10.1371/journal.ppat.1012142).